Measured values taken from PMC10107573 (Nature Communications, 2023).

Key:
[1] = molecular target: recombinant biotinylated SARS-CoV-2 spike RBD, wild type (SARS-CoV-2, UniProt P0DTC2, biotinylated); assay: BLI; settings: both partners purified
[2] = molecular target: SARS-CoV-2 spike RBD (wild type) used for crystallization (SARS-CoV-2, UniProt P0DTC2); assay: crystal structure; settings: both partners purified

| Binder | binding result [1] | binding result [2] |
| --- | --- | --- |
| monoclonal antibody 6-2C (human IgG1) (antibody, V domains shown) VH: QVQLVESGGGVVQPGRSLRLSCASSGFTFSTYHMHWVRQPPGKGLEWVAFISYDGSNYYYSDSVKGRFTISRDNSKNTVYLQMNSLRAEDTALYYCARDSSGWHWGVPFDYWGQGTLVTVSS VL: EIVLTQSPSSLSASVQDRVTITCRASQVISNYLAWFQQKPGKAPKLLIYAASNLQSGVPSRFRGSGSGTDFTLTISSLQPEDFATYYCQQYNIYPLTFGGGTKVDIK | binds | – |
| 6-2C Fab (Fab, V domains shown) VH: QVQLVESGGGVVQPGRSLRLSCASSGFTFSTYHMHWVRQPPGKGLEWVAFISYDGSNYYYSDSVKGRFTISRDNSKNTVYLQMNSLRAEDTALYYCARDSSGWHWGVPFDYWGQGTLVTVSS VL: EIVLTQSPSSLSASVQDRVTITCRASQVISNYLAWFQQKPGKAPKLLIYAASNLQSGVPSRFRGSGSGTDFTLTISSLQPEDFATYYCQQYNIYPLTFGGGTKVDIK | – | binds |
